Measured values from several laboratories, pooled; numbers as filed in NIAID ChemDB.

All rows: cytotoxicity tests; measure: CC50

CCn: concentration that lowers growth or viability of the cells by n%. Neighbouring rows are from separate reports. Blank or dashed fields: not listed here.

SMILES	read by	cells	setting	value
CC(C)=CCC/C(C)=C/CC/C(C)=C/CC[C@@]1(C)CCc2cc(O)cc(C)c2O1	ATP	BJ		>26 µM
CC(C)(C)c1ccc(C(=O)Nc2nnc(-c3ccccn3)s2)cc1	luminescence	VERO		83 µM
O=c1[nH]cnc2c1ncn2[C@H]1CC[C@@H](CO)O1	MTS	CEM-GFP		>1000 µM
Nc1ncnc2c1ncn2[C@H]1[C@H](O)[C@H](O)[C@]2(CO)O[C@H]12		PRK		28 µg/mL
COc1cc2oc(=O)cc(O)c2c(O)c1Oc1ccc(-c2cc(=O)c3c(O)cc(O)cc3o2)cc1	MTT	HepG 2.2.15 cells		<20 µg/mL
Cc1cn([C@H]2C[C@H](N=[N+]=[N-])[C@H](CO)O2)c(=O)n(CCNc2ccnc3cc(Cl)ccc23)c1=O	MTT	HeLa cells		>100 µM
CCCNC(=O)n1[se]c2ccccc2c1=O	visual reading	A549		9.8 µg/mL
Nc1ncnc2c1ncn2CCOCP(=O)(O)O		TPA-stimulated BCBL-1		27 µM
Sc1ccccc1-c1csc(Nc2ccccn2)n1	luminescence	VERO		48 µM
Nc1nc2c(ncn2CCC(CO)CO)c(=O)[nH]1		CD4+ T lymphocytes		>250 µM
NC(=O)c1csc(C2OC(CO)C(O)C2O)c1		RAJI		8.7 µM
C[N+](C)(C)CCn1[se]c2ccccc2c1=O	visual reading	A549		156 µg/mL
Cc1cn([C@H]2C[C@H](N=[N+]=[N-])[C@@H](CO)O2)c(=O)[nH]c1=O		JM		>1039 µM
O=c1[nH]c(=O)n([C@H]2C[C@H](O)[C@@H](CO)O2)cc1I		HSB-2		>1500 µM
[N-]=[N+]=NCCCCCCCCCCCC(=O)OC[C@@H]1O[C@H](n2cc(F)c(N)nc2=O)CS1	MTT	MAGI		>200 µM
Nc1ccn([C@H]2CC[C@@H](CO)O2)c(=O)n1	trypan blue	HB611		>200 µg/mL
O=C(Nc1nc(-c2ccccn2)cs1)c1ccc([N+](=O)[O-])cc1	luminescence	VERO		3 µM
O=C(O)P(=O)(O)O		SupT1		134 µM
COc1cc2c(c3oc(=O)c4c(c13)CCC4=O)[C@H]1C[C@H](OC(C)=O)O[C@H]1O2		L-02		6.4 µM
Cc1cc(/C=C/C#N)cc(C)c1Nc1ccnc(Nc2ccc(C#N)cc2)n1	MTS	CEM-GFP		822 µM
O=C1O[C@H]2[C@@H]3OC(=O)c4cc(O)c(O)c(O)c4-c4c(cc(O)c(O)c4O)C(=O)OC[C@H]2O[C@@H](OC(=O)c2cc(O)c(O)c(O)c2)[C@@H]3OC(=O)c2cc(O)c(O)c3c2[C@@H]2C1=CC(=O)[C@](O)(O3)C2(O)O	XTT	MAGI		315 µM
C[S@@](=O)CCCCN=C=S	WST	NA		33.38 µM
CC(=O)OCC(=O)Nc1nc(-c2ccccn2)cs1	luminescence	VERO		>100 µM
CC/C=C\C[C@@H]1[C@@H](CC(=O)OC)CC[C@@H]1O	ATP	RAJI		>26 µM
CCCCCCCCCCCCCC(=O)OC[C@@H]1O[C@H](n2cc(F)c(N)nc2=O)CS1	MTT	MAGI		>200 µM
NCCNc1ccnc2cc(Cl)ccc12	MTT	HeLa cells		63.44 µM
COc1ccc(-c2cc(=O)c3c(O)cc(O)cc3o2)cc1-c1c(O)cc2oc(-c3ccc(O)cc3)cc(=O)c2c1O	MTT	HepG 2.2.15 cells		50 µg/mL
Cc1cn([C@H]2C=C[C@@H](CO)O2)c(=O)[nH]c1=O	trypan blue	ATH8		110 µM
Nc1ccn([C@@H]2O[C@H](CO)C[C@@H]2F)c(=O)n1		M0.MO		3.3 µg/mL
Cc1cn([C@H]2C[C@H](NC(=O)NCCNc3ccnc4cc(Cl)ccc34)[C@H](CO[Si](c3ccccc3)(c3ccccc3)C(C)(C)C)O2)c(=O)[nH]c1=O	MTT	HeLa cells		23.78 µM
CC/C=C\C[C@@H]1[C@@H](CC(=O)OC)CC[C@H]1O	ATP	RAJI		>26 µM
O=C(Nc1nc(-c2ccccn2)cs1)C1CCCCC1	luminescence	VERO		39 µM
COc1cc([C@H]2OC[C@H]3[C@@H]2CO[C@H]3c2ccc3c(c2)OCO3)cc2c1OCO2		HOG.R5		23 µg/mL
CN(C)c1ccc(O)c2c1C[C@H]1C[C@H]3[C@H](N(C)C)C(=O)C(C(N)=O)=C(O)[C@@]3(O)C(=O)C1=C2O	LDH	Microglia		>30 µg/mL
O=C(O)/C=C/c1cc(C(=O)O)c(O)c2nc(/C=C/c3ccc(O)c(O)c3)ccc12	MTT	HeLaP4		>100 µM
Nc1nc(N)c2ncn(CCOCP(=O)(O)O)c2n1		HSB-2		164 µM
Nc1ccn(C[C@@H](CO)OCP(=O)(O)O)c(=O)n1	trypan blue	HB611		60 µg/mL
CN(C)CCn1[se]c2ccccc2c1=O	visual reading	A549		1.22 µg/mL
CC(=O)c1cc(O)c(O)c(=O)cc1C	MTS	HepDES19	7 d	3.54 µM
Nc1ncnc2c1ncn2[C@H]1CC[C@@H](CO)O1	trypan blue	HB611		>200 µg/mL
Cc1cn([C@H]2C[C@H](NC(=O)NCCCCCNc3ccnc4cc(Cl)ccc34)[C@H](CO)O2)c(=O)[nH]c1=O	MTT	HeLa cells		>100 µM
COc1cc2c(cc1OC)[C@]13C[C@@H](OC)C=CC1=CCN3CC2	MTT	HEP-2		21.6 µg/mL
CC1(C)CC[C@]2(C(=O)O)CC[C@]3(C)C(=CC[C@@H]4[C@@]5(C)C[C@@H](O)[C@H](O)C(C)(C)[C@@H]5CC[C@]43C)[C@@H]2C1	ATP	RAJI		>26 µM
c1ccc(Nc2nc(-c3ccc4ccccc4n3)cs2)nc1	luminescence	VERO		6 µM
CO[C@@H]1[C@H](O)[C@@H](CO)O[C@H]1n1ccc(N)nc1=O	MTS	HB110A		>100 µM
Cn1[se]c2ccccc2c1=O	visual reading	A549		2.5 µg/mL
Nc1ncnc2c1ncn2CCOCP(=O)(OCCOCCCCCCCCCCO)OCCOCCCCCCCCCCO	cell count	HEL		62.5 µM
COc1ccccc1Nc1nc(-c2ccccn2)cs1	luminescence	VERO		17 µM
Nc1nc2c(ncn2COCCO)c(=O)[nH]1		HSB-2		861 µM
NC(=O)c1c[se]c([C@@H]2O[C@H](CO)[C@@H](O)[C@H]2O)n1		RAJI		1.6 µM
O=c1[nH]cnc2c1ncn2[C@@H]1C=C(CO)[C@@H](O)[C@H]1O		PRK		>50 µg/mL
O=c1[nH]c(=O)n([C@@H]2O[C@H](CO)[C@@H](O)[C@@H]2O)cc1/C=C/Br		HSB-2		>75 µM
CO[C@H]1C=CC2=CCN3CCc4cc5c(cc4[C@]23C1)OCO5	MTT	HEP-2		15.9 µg/mL
O=C(Nc1ccccc1)n1[se]c2ccccc2c1=O	visual reading	A549		58.5 µg/mL
C[C@H]1[C@H](C)CC[C@]2(C(=O)O)CC[C@]3(C)C(=CC[C@@H]4[C@@]5(C)CC[C@H](O)C(C)(C)[C@@H]5CC[C@]43C)[C@H]12	ATP	BJ		>26 µM
NC(=O)c1ncn([C@@H]2O[C@H](CO)[C@@H](O)[C@H]2O)n1		PRK		>5 µg/mL
Cc1cc(C#N)cc(C)c1Oc1nc(Nc2ccc(C#N)cc2)nc(N)c1Br	MTS	CEM-GFP		58 µM
c1ccc(-c2csc(Nc3cccc4ccccc34)n2)nc1	luminescence	VERO		6 µM
CC[C@H](/C=C/[C@@H](C)[C@H]1CCC2C3CC=C4C[C@@H](O)CC[C@]4(C)[C@@]3(C)CC[C@@]21C)C(C)C	ATP	RAJI		>26 µM
Nc1nc2c(ncn2COCCO)c(=O)[nH]1		TPA-stimulated BCBL-1		≥230 µM
OC1C(O)C(O)C(O)C(O)C1O	ATP	BJ		>26 µM
Cc1cn([C@H]2C[C@H](N=[N+]=[N-])[C@@H](CO)O2)c(=O)[nH]c1=O	trypan blue	ATH8		40 µM
Cl.N#Cc1cc(NC(=O)[C@H]2CCN(C(=O)C(=O)NC3(c4cn[nH]n4)CC(F)(F)C3)C2)ccc1F	luminescence	HepG2.117		>50 µM
Nc1ncnc2c1ncn2[C@@H]1C=C(CO)[C@@H](O)[C@H]1O		PRK		100 µg/mL
Cc1ccnc2c1NC(=O)c1cccnc1N2C1CC1	MTS	CEM-GFP		917 µM

Repeating the final 9 entries:

| SMILES | read by | cells | setting | value |
|---|---|---|---|---|
| Cc1cc(C#N)cc(C)c1Oc1nc(Nc2ccc(C#N)cc2)nc(N)c1Br | MTS | CEM-GFP |  | 58 µM |
| c1ccc(-c2csc(Nc3cccc4ccccc34)n2)nc1 | luminescence | VERO |  | 6 µM |
| CC[C@H](/C=C/[C@@H](C)[C@H]1CCC2C3CC=C4C[C@@H](O)CC[C@]4(C)[C@@]3(C)CC[C@@]21C)C(C)C | ATP | RAJI |  | >26 µM |
| Nc1nc2c(ncn2COCCO)c(=O)[nH]1 |  | TPA-stimulated BCBL-1 |  | ≥230 µM |
| OC1C(O)C(O)C(O)C(O)C1O | ATP | BJ |  | >26 µM |
| Cc1cn([C@H]2C[C@H](N=[N+]=[N-])[C@@H](CO)O2)c(=O)[nH]c1=O | trypan blue | ATH8 |  | 40 µM |
| Cl.N#Cc1cc(NC(=O)[C@H]2CCN(C(=O)C(=O)NC3(c4cn[nH]n4)CC(F)(F)C3)C2)ccc1F | luminescence | HepG2.117 |  | >50 µM |
| Nc1ncnc2c1ncn2[C@@H]1C=C(CO)[C@@H](O)[C@H]1O |  | PRK |  | 100 µg/mL |
| Cc1ccnc2c1NC(=O)c1cccnc1N2C1CC1 | MTS | CEM-GFP |  | 917 µM |